{"sequences": {"note": "By UniProt entry, the sequences of proteins in these tests, tags left out. Where a name states a change or a piece, a line headed by the entry shows the natural chain unless it says otherwise.", "UniProt P13423": "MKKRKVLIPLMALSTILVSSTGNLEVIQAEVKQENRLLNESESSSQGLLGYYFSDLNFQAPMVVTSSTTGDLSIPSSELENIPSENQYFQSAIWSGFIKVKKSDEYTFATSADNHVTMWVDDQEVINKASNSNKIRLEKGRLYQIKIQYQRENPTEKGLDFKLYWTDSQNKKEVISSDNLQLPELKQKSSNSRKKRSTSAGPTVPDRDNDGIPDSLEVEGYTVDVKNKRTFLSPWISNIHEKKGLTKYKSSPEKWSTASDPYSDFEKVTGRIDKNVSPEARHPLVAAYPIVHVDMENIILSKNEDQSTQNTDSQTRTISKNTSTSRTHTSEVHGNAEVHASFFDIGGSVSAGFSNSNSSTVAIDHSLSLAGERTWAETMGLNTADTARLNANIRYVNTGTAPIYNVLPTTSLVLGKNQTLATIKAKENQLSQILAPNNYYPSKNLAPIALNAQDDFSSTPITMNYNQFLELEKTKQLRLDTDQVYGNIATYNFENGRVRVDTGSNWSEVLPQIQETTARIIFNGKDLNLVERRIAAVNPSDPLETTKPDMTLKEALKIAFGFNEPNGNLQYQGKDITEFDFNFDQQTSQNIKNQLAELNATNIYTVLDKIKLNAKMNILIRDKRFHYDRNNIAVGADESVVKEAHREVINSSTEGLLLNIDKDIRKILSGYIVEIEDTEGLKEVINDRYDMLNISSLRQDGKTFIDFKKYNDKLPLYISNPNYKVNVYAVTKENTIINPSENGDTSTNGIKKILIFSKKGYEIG"}, "source": "patent US9463216B2", "about": "(priority 2012, dated 2016)", "biological_target": "lethal toxin (PA + LF) (Bacillus anthracis, UniProt P13423)", "assay": "Inhibition of lethal toxin (LT)-mediated cytolysis in bone-marrow macrophage cells, lactate dehydrogenase release assay", "data": [{"substance": "poly-γ-D-glutamic acid", "values": [{"measurement": "inhibitory activity (LT-mediated cytotoxicity) after cleavage by Cap D", "setting": "compound pretreated with Cap D", "value": "reversible by digestion with Cap D"}, {"measurement": "inhibit LT-mediated cytolysis in bone marrow macrophage cells", "setting": "natively purified compounds", "value": "not"}]}]}
